Data reported in the supplement of paper PMC9931576.
Human monoclonal antibodies against the spike receptor-binding domain (heavy:light variable regions). IC50 against pseudoviruses bearing the spike of naturally observed variants; lower = stronger; >10 µg/ml means not reached at the top dose. No active / inactive call. The stated detection limit is 0.0005 µg/ml; values near or below 0.001 µg/ml lie at the floor of the assay.

B1: BD56-762 (protein)
chain 1: EVQLVESGGGLVQPGRSLRLSCAASGFTFDDYAMHWVRQAPGKGLEWVSGISWNSGSIGYADSVKGRFTISRDNARNSLYLQMNSLRAEDTALYYCAKDLTDGYNSGDWYFHYWGQGTLVTVAS
chain 2: QSALTQPASVSGSPGQSITISCTGTSSDVGGFNYVSWYQQHPGKAPKLMIYDVSKRPSGVSDRFSGSKSGNTASLTISGLQPEDEADYYCTSYTSSSTVVFGGGTKLTVL
B2: BD56-780 (protein)
chain 1: QITLKESGPTLVNPTQTLTLTCTFSGISLSASGVNVGWIRQPPGKALEWLAFISWDGDKRYSPSLKSRLTITTDTSKNQVVLTMTNLDSVDTATYYCAHSFAYYSELGSLDYWGQGTLVTVSS
chain 2: QSVLTQPPSVSGAPGQRVTISCTGSSSNIGAGYDVHWYQQLPGTAPKLLIFDSRNRPSGVPGRFSGSKSGTSASLAITGLQAEDEATYYCQSYDSSLTAVVFGGGTKLTVL
B3: BD56-788 (protein)
chain 1: QVQLQESGPGLVKPSETLSLTCTVSGGSISDHYWSWIRQPAGKGLEWIGRIYTSGSTNCNPSLKSRVTMSVDTSKNQFSLKLSSVTAADTAVYFCVRDQGVPGLYFSDDRYFDWLHYDANWFDPWGQGTLVTVSS
chain 2: QSVLTQPPSVSGAPGQRVTISCTGSSSNIGAGYDVHWYQQLPGTAPKLLIYGNNNRPSGVPDQFSGSKSGTSASLAITGLQAEDEADYYCQSYDSSLSGYVFGTGTKVTVL
B4: BD56-794 (protein)
chain 1: EVQLVQSGAEVKKPGESLKISCKDSGYSFTSYWIGWVRQMPGKGLEWMGIIYPGDSDTRYSPSFQGQVTISADKSISTAYLQWSSLKASDTAMYYCAISDGYNSFFLWYWGQGTLVTVSS
chain 2: EIVMTQSPATLSVSPGERATLSCRASQSVSSNLAWYQQKPGQAPRLLIYGASTRATDIPARFSGSGSGTEFTLTISSLQSEDFAVYYCQQYNNWPPTFGQGTKLEIK
B5: BD56-798 (protein)
chain 1: QVQLQESGPGLVKPSETLSLTCTVSGGPISSHYWNWIRQPPGKGLEWIGYIYYSGSTNYNPSLKSRVTISVDASKNQVSLKLISVTAADTAVYYCARGGILGDYFDYWGQGTLVTGSS
chain 2: DIVMTQSPDSLAVSLGERATINCKSSQSVLYSSNNENYLAWYQQKPGQSPKLLIYWASTRESGVPDRFSGSGSGTDFTLTISSLQAEDVAVYYCQQYYSPPLTFGGGTKVEIK
B6: BD56-819 (protein)
chain 1: EVQLVESGGGLVKPGGSLRLSCAASGFTFSSYTMNWVRQAPGKGLEWVSSISYSSNYIYYADSVKGRFTISRDNAKNSLYLQMNSLRAEDTAVYYCARGRPPLITLIPLEGYDAFDIWGQGTMVTVSS
chain 2: QPVLTQPPSASASLGASVTLTCTLSSGYSNYKVDWYQQRPGKGPRFVMRVGTGGIVGSKGDGIPDRFSVLGSGLTRYLTINNIQEEDESDYHCGADHGSGSNFVYLFGGGTKLTVL
B7: BD56-862 (protein)
chain 1: EVQLLESGGGLVQPGGSLRLSCTASGFTFSSYAMSWVRQAPGKGLEWVSVIYGGGSSTYYVDSVKGRFTISRDNSKNTLYLQMSSLRAEDTAVYYCAIEWEPLGHYYYYMDVWGKGTTVTVSS
chain 2: QSVLTQPPSVSGAPGQRVTISCTGSSSNIGAGYDLHWYQQLPGTAPKLLIYGNSNRPSGVPDRFSGSKSGTSASLAITGLQAEDEADYYCQSYDSSLSGWVFGGGTKLTVL
B8: BD56-864 (protein)
chain 1: QVQLQESGPGLVKPSETLSLTCTVSGDSISGYYWSWIRQPPGKGLEWIGYIYYTGSTDYNPSLKSRVTISVDTSKNQFSLMLSSVTAADTAVYYCARGGIGGDSFDYWGQGTLVTVSS
chain 2: DIVMTQSPDSLAVSLGERATINCKSSQSVLYSSNNKNYLAWYQQKPGQPPKLLIYWASTRESGVPDRFSGSGSGTDFTLTITSLQAEDVAVYYCQQYYSTPLTFGQGTKVEIK
B9: BD56-874 (protein)
chain 1: QVRLQESGPGLVKPSETLSLTCTVSGDSISGSYWSWIRQPPGKGLEWIGETYFSGSISERTNDNRPLKSRVTILADTSKNEFSLKLSSVTAADTAVYYCARDLSGWGLPPLWGQGTLVIVSS
chain 2: DIQMTQSPSSLSASVGDRVTITCRASQGINTYLNWYQQKPGEAPKLLIYAASSLQSGVPSRFSGSGSGTDFTLTISSLQREDFAAYYCQQSYSTPLTFGGGTKVEIK
B10: BD56-273 (protein)
chain 1: QVQLQESGPGLVKPSGTLSLTCAVSGGSISSSNWWSWVRQPPGKGLEWIGEIYHSGYTNYNPSLKSRVTISVDKSKNQFSLKLSSVTAADTAVYYCARDLGHTYTYYFDYWGQGTLVTVSS
chain 2: QSALTQPASVSGSPGQSITISCTGTSSDITGYNYVSWYQQHPGKAPKLMIYDVSDRPSGVPDRFSGSKSGNTASLTISGLQAEDEADYYCSSYTSSSTPVVFGGGTKLTVL

target: SARS-CoV-2 Omicron BA.1 spike pseudovirus; test: pseudovirus neutralization IC50; higher = weaker neutralization
Description: (§1)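 Single-round VSV luciferase pseudovirus mixed with antibody dilutions for 1 h and put on Huh-7 cells for about a day; IC50 from the dose curve.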

Row | Binder | pseudovirus neutralization IC50 [µg/mL]
1 | B1 | 0.0577
2 | B2 | 0.0107
3 | B3 | 0.000991
4 | B4 | 0.000207
5 | B5 | 0.0015
6 | B6 | 0.00171
7 | B7 | 0.047
8 | B8 | 0.00379
9 | B9 | 0.423
10 | B10 | 0.00134

target: SARS-CoV-2 Omicron BA.2 spike pseudovirus; test: as above
Description: as §1

Row | Binder | pseudovirus neutralization IC50 [µg/mL]
11 | B1 | > 10
12 | B2 | > 10
13 | B3 | 0.000596
14 | B4 | 0.000581
15 | B5 | > 10
16 | B6 | 0.00115
17 | B7 | > 10
18 | B8 | > 10
19 | B9 | > 10
20 | B10 | 0.00252

target: SARS-CoV-2 Omicron BA.2.75 spike pseudovirus; test: as above
Description: as §1

Row | Binder | pseudovirus neutralization IC50 [µg/mL]
21 | B1 | > 10
22 | B2 | > 10
23 | B3 | > 10
24 | B4 | 0.000381
25 | B5 | > 10
26 | B6 | 0.00301
27 | B7 | > 10
28 | B8 | > 10
29 | B9 | > 10
30 | B10 | 0.00378

target: SARS-CoV-2 Omicron BA.2.75.2 spike pseudovirus; test: as above
Description: as §1

Row | Binder | pseudovirus neutralization IC50 [µg/mL]
31 | B1 | > 10
32 | B2 | > 10
33 | B3 | > 10
34 | B4 | 0.00128
35 | B5 | > 10
36 | B6 | > 10
37 | B7 | > 10
38 | B8 | > 10
39 | B9 | > 10
40 | B10 | 0.00808

target: SARS-CoV-2 Omicron BA.5 spike pseudovirus; test: as above
Description: as §1

Row | Binder | pseudovirus neutralization IC50 [µg/mL]
41 | B1 | > 10
42 | B2 | > 10
43 | B3 | > 10
44 | B4 | 0.000989
45 | B5 | > 10
46 | B6 | > 10
47 | B7 | > 10
48 | B8 | > 10
49 | B9 | > 10
50 | B10 | 0.939

target: SARS-CoV-2 Omicron BM.1.1.1 spike pseudovirus; test: as above
Description: as §1

Row | Binder | pseudovirus neutralization IC50 [µg/mL]
51 | B1 | > 10
52 | B2 | > 10
53 | B3 | > 10
54 | B4 | 0.00146
55 | B5 | > 10
56 | B6 | > 10
57 | B7 | > 10
58 | B8 | > 10
59 | B9 | > 10
60 | B10 | 1.19

target: SARS-CoV-2 Omicron BQ.1.1 spike pseudovirus; test: as above
Description: as §1

Row | Binder | pseudovirus neutralization IC50 [µg/mL]
61 | B1 | > 10
62 | B2 | > 10
63 | B3 | > 10
64 | B4 | 0.00298
65 | B5 | > 10
66 | B6 | > 10
67 | B7 | > 10
68 | B8 | > 10
69 | B9 | > 10
70 | B10 | > 10

target: SARS-CoV-2 Omicron BR.2 spike pseudovirus; test: as above
Description: as §1

Row | Binder | pseudovirus neutralization IC50 [µg/mL]
71 | B1 | > 10
72 | B2 | > 10
73 | B3 | > 10
74 | B4 | 0.000864
75 | B5 | > 10
76 | B6 | > 10
77 | B7 | > 10
78 | B8 | > 10
79 | B9 | > 10
80 | B10 | 1.28

target: SARS-CoV-2 Omicron CA.1 spike pseudovirus; test: as above
Description: as §1

Row | Binder | pseudovirus neutralization IC50 [µg/mL]
81 | B1 | > 10
82 | B2 | > 10
83 | B3 | > 10
84 | B4 | 0.00112
85 | B5 | > 10
86 | B6 | > 10
87 | B7 | > 10
88 | B8 | > 10
89 | B9 | > 10
90 | B10 | 1.23

target: SARS-CoV-2 Omicron XBB spike pseudovirus; test: as above
Description: as §1

Row | Binder | pseudovirus neutralization IC50 [µg/mL]
91 | B1 | > 10
92 | B2 | > 10
93 | B3 | > 10
94 | B4 | > 10
95 | B5 | > 10
96 | B6 | > 10
97 | B7 | > 10
98 | B8 | > 10
99 | B9 | > 10
100 | B10 | 1.27

target: SARS-CoV-2 early D614G spike pseudovirus; test: as above
Description: as §1

Row | Binder | pseudovirus neutralization IC50 [µg/mL]
101 | B1 | > 10
102 | B2 | > 10
103 | B3 | > 10
104 | B4 | > 10
105 | B5 | > 10
106 | B6 | > 10
107 | B7 | > 10
108 | B8 | > 10
109 | B9 | > 10
110 | B10 | > 10
